PubChem BioAssay AID504761 | Drosophila RNAi Screening Center | 2011
Assay: 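Genome-wide fly cell screen for genes dengue virus requires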 (primary screen). Cells: D.Mel-2 cells from Drosophila. Reagent: long dsRNA against Drosophila genes. Conditions: infection with dengue virus type 2; dose and infection time not stated. Detection: 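Cells stained for dengue envelope protein and imaged; percent of infected cells per well on duplicate plates, ranked by infection, with stained nuclei counted for cell number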. Scale: infection score: higher = more virus-infected cells; cell count: higher = more cells in the well. Rule for the call: 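Very low infection ranking in both replicate wells (chance probability at most 0.065), then a retest showing infection dropped 1.5-fold or more at p below 0.05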. Meaning of the calls: active = confirmed: knock-down lowers infection; inactive = not picked or not confirmed.
The screen tested about 22,000 reagents; below is an unselected part of those with a known target gene and a result. Over the whole deposit, 116 (0.52%) were called active. 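Calls depend on retest data that are not deposited; infection was ranked per plate without normalising between plates; the unit of the infection score is not given.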 Raw values are not corrected between plates. Entries without a mark were called inactive. Not all columns of the deposit are shown. Not given: the amount of reagent, the time to read-out.

predicted target,amplicon,"infection score, replicate 1","infection score, replicate 2","cell count, replicate 1"
CG6974,DRSC16160,9.48,18.6,3059
CG15435,DRSC00450,2.8,4.28,6892
CG15435,DRSC27701,6.38,3.84,6381
CG30121 (retired record),DRSC21481,3.44,9.23,6300
CG30121 (retired record),DRSC27254,16.7,17.5,6620
GlyRS (Glycyl-tRNA synthetase),DRSC10711,3.82,8.56,6234
CG15196,DRSC19643,1.99,4.44,6722
CG15196,DRSC24591,0.95,1.36,6129
CG6380,DRSC02950,3.75,11.5,6531
Tep3 (Thioester-containing protein 3),DRSC03452,5.66,6.2,6574
Srg3 (Sting-regulated gene 3),DRSC08984,4.74,5.08,6500
Srg3 (Sting-regulated gene 3),DRSC10178,3.42,2.26,6163
grass (Gram-positive Specific Serine protease),DRSC15911,3.27,3.83,6331
nonA (no on or off transient A),DRSC20357,2.1,7.97,5628
nonA (no on or off transient A),DRSC27455,7.31,3.86,6073
CG10916,DRSC06012,15.5,13,5688
Irk1 (Inwardly rectifying potassium channel 1),DRSC16106,1.71,7.1,6534
CG14177 (retired record),DRSC10176,3.51,2.19,6009
CG14177 (retired record),DRSC27883,8.51,13.5,6677
Ada3 (transcriptional Adaptor 3),DRSC20321,7.02,6.28,6154
Ada3 (transcriptional Adaptor 3),DRSC20322,7.83,5.22,7085
CG31326,DRSC16532,1.31,1.52,6616
CG31326,DRSC26494,1.56,3.39,6481
Pgam5 (Phosphoglycerate mutase 5),DRSC18551,3.63,3.38,6532
CG18605,DRSC06772,3.84,0.91,6172
CG18605,DRSC26583,1.64,2.84,6341
CG15429,DRSC00444,3.55,10.1,6283
CG15429,DRSC26501,2.64,3.71,5919
Ir47a (Ionotropic receptor 47a),DRSC06215,12,3.12,6805
Gyc88E (Guanylyl cyclase at 88E),DRSC15547,2.8,19.2,5721
CG7702,DRSC16293,2.47,3.1,6200
CG7702,DRSC27592,26.1,4.39,5743
Dpm1 (Dolichyl-phosphate mannosyltransferase subunit 1),DRSC02018,16.2,1.88,4695
CG12947,DRSC14575,3.14,1.59,6312
Tmlh (Trimethyllysine hydroxylase),DRSC15563,1.54,4.61,6346
CG32032,DRSC08961,2.8,2.26,6251
esn (espinas),DRSC05039,1.62,0.86,6125
esn (espinas),DRSC07612,3.98,5.32,5856
CG13720,DRSC08329,5,6.85,5880
CG13720,DRSC23787,5.8,6.85,6143

3 successive records already listed:
predicted target,amplicon,"infection score, replicate 1","infection score, replicate 2","cell count, replicate 1"
Ada3 (transcriptional Adaptor 3),DRSC20322,7.83,5.22,7085
CG31326,DRSC16532,1.31,1.52,6616
CG31326,DRSC26494,1.56,3.39,6481
